Measurements taken from paper PMC6154613, “Investigation of the Anti-Leishmania (Leishmania) infantum Activity of Some Natural Sesquiterpene Lactones” (Molecules : A Journal of Synthetic Chemistry and Natural …, 2017).

System: L. (L.) infantum intracellular amastigotes
Experiment: Activity against intracellular amastigotes in peritoneal macrophages, Giemsa staining and light microscopy
Assay type: cell-based, Leishmania (Leishmania) infantum
Settings: selectivity index = CC50 in NCTC cells / IC50 in amastigotes
Experimental: L. (L.) infantum (MHOM/BR/1972/LD) promastigotes were maintained in M-199 medium supplemented with 10% heat-inactivated fetal bovine serum (FBS) (Gibco, Thermo Fisher Scientific, São Paulo, Brazil), 0.25% hemin (Sigma-Aldrich), and 5% human urine at 24 °C. Amastigotes were obtained from the spleen of previously infected hamsters by differential centrifugation. Macrophages were collected from the peritoneal cavity of BALB/c mice by washing with RPMI-1640 medium supplemented with 10% FBS, and were maintained at 37 °C in a 5% CO2-humidified incubator. Murine fibroblasts NCTC (clone L929 ATCC) were used to evaluate the cytotoxicity of the tested compounds. NCTC cells were maintained in M-199 medium supplemented with 10% FBS and 20 μg/mL gentamicin at 37 °C in a 5% CO2-humidified incubator.
Murine peritoneal macrophages were collected from the peritoneal cavity of BALB/c mice, and the macrophages were seeded at 1 × 10^5/well for 24 h in a 16-well slide. […] The parasite burden was determined by the number of infected macrophages out of 400 cells.
Data processing and statistical analyses was done with GraphPad Prism® 5.0 (GraphPad Software, Inc. La Jolla, CA, USA). For determination of antileishmanial activity and NCTC cytotoxicity, the IC50 and CC50 values were calculated after normalization using sigmoidal dose-response curves. […]

C=C1C(=O)O[C@H]2[C@H]1CC/C(C)=C/CC[C@@]1(C)O[C@@H]21 [Parthenolide (6), Parthenolide]
SI (NCTC/Amastigote): <1
